The Ki is a measure of affinity in units of concentration, obtained from inhibition or displacement. The low end stands for a stronger hold on the target, the high end for a looser hold on the target.

By UniProt entry, the sequences of proteins in these tests, tags left out. Where a name states a change or a piece, a line headed by the entry shows the natural chain unless it says otherwise.
UniProt Q9H3N8: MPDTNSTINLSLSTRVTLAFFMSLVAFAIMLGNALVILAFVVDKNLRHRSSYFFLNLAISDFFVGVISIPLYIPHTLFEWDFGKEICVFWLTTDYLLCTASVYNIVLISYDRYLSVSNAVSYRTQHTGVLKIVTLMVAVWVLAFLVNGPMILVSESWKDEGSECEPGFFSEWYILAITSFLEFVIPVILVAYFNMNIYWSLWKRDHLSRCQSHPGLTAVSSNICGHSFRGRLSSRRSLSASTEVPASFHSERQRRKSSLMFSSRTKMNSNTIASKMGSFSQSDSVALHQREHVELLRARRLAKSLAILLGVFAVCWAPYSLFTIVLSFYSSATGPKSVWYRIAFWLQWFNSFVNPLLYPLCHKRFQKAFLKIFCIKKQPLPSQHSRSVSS

Where only a bound is given, the exact number is not on record here.

The test has as its target T1, human H4 receptor (Homo sapiens, UniProt Q9H3N8).
T1 construct: expressed in transfected cells; host or cells: HEK 293T cells, transient transfection with polyethyleneimine
The test is described as follows: [3H]Histamine binding assay (radioligand displacement at the human H4 receptor). Background: Loss of bound radioactivity is the signal in a displacement assay; it reports binding, not function.

The molecule `CN1CCN(c2nc(NCCS(=O)(=O)N3CCOCC3)c3cc(Cl)ccc3n2)CC1` [Example 7, 6-chloro-2-(4-methylpiperazin-1-yl)-N-(2-(morpholinosulfonyl)ethyl)quinazolin-4-amine] registered a Ki of less than 1000 nM.
